Measured values from several laboratories, pooled; numbers as filed in NIAID ChemDB.

All rows: whole-cell or culture tests; species: Hepatitis B virus; measure: EC50

Lines come from different laboratories, so protocols vary.

| compound | strain or isolate | cells | conditions | read by | result |
|---|---|---|---|---|---|
| CCCNC(=O)[C@]1(C)CC[C@]2(C)CC[C@]3(C)C4=CC=C5C(=CC(=O)C(O)=C5C)[C@]4(C)CC[C@@]3(C)[C@@H]2C1 |  | HepG2 2.2.15 |  | ELISA / antigen | 21.4 µM |
| Nc1nc(=O)n([C@@H]2C[C@@H](O)[C@H](CO)O2)cc1Cl |  | HepG2.2.15 |  |  | 10 µM |
| Nc1ncnc2c1ncn2CCOCP(=O)(O)O |  | HEPAD79 |  | PCR | 0.1 µM |
| CC1=C(O)C(=O)C=C2C1=CC=C1[C@@]2(C)CC[C@@]2(C)[C@@H]3C[C@](C)(C(=O)N4CCOCC4)CC[C@]3(C)CC[C@]12C |  | HepG2 2.2.15 |  | ELISA / antigen | 15.7 µM |
| Nc1ncc2ncn(CCOCP(=O)(O)O)c2n1 |  | HB611 |  |  | 17 µM |
| Cc1cn([C@H]2O[C@@H](CO)[C@H](O)[C@H]2F)c(=O)[nH]c1=O | L526M |  |  |  | >100 µM |
| Cc1cn([C@@H]2C[C@@H](N)[C@H](CO)O2)c(=O)[nH]c1=O |  | HepG2.2.15 |  |  | >10 µM |
| Nc1nc(N)c2ncn([C@H]3CO[C@@H](CO)O3)c2n1 | L526M |  |  |  | 59 µM |
| Cc1nc(N)c2ncn(CC(CO)OCP(=O)(O)O)c2n1 |  | HB611 |  |  | 200 µM |
| Nc1ccn([C@@H]2CS[C@H](CO)O2)c(=O)n1 | WILD TYPE | Huh7 |  |  | 0.56 µM |
| C[C@H](Cn1cnc2c(N)nc(N)nc21)OCP(=O)(O)O |  | HEPAD79 |  | PCR | 1 µM |
| CC1=C(O)C(=O)C=C2C1=CC=C1[C@@]2(C)CC[C@@]2(C)[C@@H]3C[C@](C)(C(=O)OCc4ccc([N+](=O)[O-])cc4)CC[C@]3(C)CC[C@]12C |  | HepG2 2.2.15 |  | ELISA / antigen | 15.1 µM |
| Nc1cc(OCCOCP(=O)(O)O)nc(N)n1 |  | HepAD38 |  | PCR | 0.3 µM |
| Nc1ncnc2c1ncn2CCOCP(=O)(O)O | WILD TYPE | HepG2 |  |  | 0.08 µM |
| COC(C)c1ccc(O)c(O)c1 |  | HepG2.2.15 |  | ELISA / antigen | 1640 µM |
| Cc1cc(OCCOCP(=O)(O)O)nc(N)n1 |  | HepAD38 |  | PCR | >300 µM |
| Nc1ncnc2c1ncn2[C@H]1O[C@@H](CO)[C@H](O)[C@@H]1O |  | HepG2.2.15 |  |  | 0.8 µM |
| CC1=C(O)C(=O)C=C2C1=CC=C1[C@@]2(C)CC[C@@]2(C)[C@@H]3C[C@](C)(C(=O)OCc4ccc(C)cc4)CC[C@]3(C)CC[C@]12C |  | HepG2 2.2.15 |  | ELISA / antigen | 9.2 µM |
| C=C(CCC=C(C)C)[C@H]1CC[C@]2(C)[C@@H]1[C@H](O)C[C@@H]1[C@@]3(C)CC[C@H](O)C(C)(C)[C@@H]3[C@@H](OC3OC(CO)C(O)C(O)C3OC3OC(C)C(O)C(O)C3O)C[C@]12C |  | HepG2.2.15 | 4 d | PCR | 3.206 µM |
| Nc1nc(N)c2ncn(CCOCP(=O)(O)O)c2n1 |  | HepAD38 |  | PCR | 0.4 µM |
| CC1=C(O)C(=O)C=C2C1=CC=C1[C@@]2(C)CC[C@@]2(C)[C@@H]3C[C@](C)(C(=O)N4CCCCC4)CC[C@]3(C)CC[C@]12C |  | HepG2 2.2.15 |  | ELISA / antigen | 33.1 µM |
| CC(C)OP(=O)(COCCn1cnc2c(N)ncnc21)OC(C)C |  | HB611 |  |  | 17 µM |
| COC(=O)[C@]1(C)CC[C@]2(C)CC[C@]3(C)C4=CC=C5C(=CC(=O)C(O)=C5C)[C@]4(C)CC[C@@]3(C)[C@@H]2C1 |  | HepG2 2.2.15 |  | ELISA / antigen | 19.4 µM |
| Nc1ncnc2c1ncn2CCCOCP(=O)(O)O |  | HB611 |  |  | 32 µM |
| O=c1ccc2cc(O)c(O)cc2o1 |  | HepG2.2.15 |  | PCR | 33.76 µM |
| Nc1nc(N)c(Br)c(OCCOCP(=O)(O)O)n1 |  | HEPAD79 |  | PCR | 17.5 µM |
| Cc1cn(CCOCP(=O)(O)O)c(=O)[nH]c1=O |  | HB611 |  |  | 200 µM |
| CC(c1ccc(O)c(O)c1)N1C=NC2C(N)=NC=NC21 |  | HepG2.2.15 |  | PCR | 13.06 µM |
| Nc1ccn(C[C@H](CO)OCP(=O)(O)O)c(=O)n1 |  | HB611 |  |  | 200 µM |
| CCOC(=O)/C=C/c1ccc(O)cc1 |  | HepG2.2.15 |  | PCR | 1050 µM |
| Nc1nc(=O)n([C@@H]2C[C@@H](O)[C@H](CO)O2)cc1F |  | HepG2.2.15 |  |  | 5 µM |

2 of the rows above, restated:

compound	strain or isolate	cells	conditions	read by	result
CC1=C(O)C(=O)C=C2C1=CC=C1[C@@]2(C)CC[C@@]2(C)[C@@H]3C[C@](C)(C(=O)N4CCCCC4)CC[C@]3(C)CC[C@]12C		HepG2 2.2.15		ELISA / antigen	33.1 µM
Nc1nc(N)c2ncn([C@H]3CO[C@@H](CO)O3)c2n1	L526M				59 µM

ECn is the concentration giving n% inhibition of infection, replication or growth. An empty or dashed field is not shown.